Measured values taken from patent US10627412B2, “Periodontal-disease-specific peptide, and treatment and diagnosis of periodontal disease using same” (KAGOSHIMA UNIVERSITY, priority 2010, dated 2020).

Test system: rat gingival epithelial cells (GEC)
Assay: Mass spectrometry differential profiling of degradation products of gingival epithelial cells treated with purified gingipains
Details: 37° C. 1 hr, MALDI-TOF

With “TIVEEVQDGKVISSREQVHQTTR (listed as Homo sapiens) [peptide 5]” the “Peak intensity ratio relative to control (enzyme-free group)” value (HRgpA treatment) was 8.4 and the “Peak intensity ratio relative to control (enzyme-free group)” value (RgpB treatment) was 18.7.
